A mixed list of measured activities; the numbers were collected in NIAID ChemDB.

Shared fields: tests in culture; organism: HIV-1; endpoint: fold resistance

Fold resistance: result on the changed form divided by that on wild type. Conditions beyond the fields shown may differ between rows.

C[C@H](Cn1cnc2c(N)ncnc21)OCP(=O)(O)O ; changes: RT-M184V ; method: recombinant virus assay ; result: 0.7
CCc1c(C(=O)c2cc(C)cc(C)c2)n(CC2CC=CC2)c(=O)[nH]c1=O ; strain: IIIB-SJ-3366 P21 (RT-E6E/K V106I Y181C F227L) ; changes: RT-E6E/K V106I Y181C F227L ; result: >33000
O=C1Nc2ccc(F)c(F)c2C(C#Cc2ccccn2)(C(F)(F)F)O1 ; changes: RT-K103N ; result: 15.6
CCOCn1c(Cc2ccccc2)c(C#N)c(=O)n(COCC)c1=O ; changes: RT-Y181C ; result: >1
O=C1Nc2ccc(F)c(F)c2C(C#Cc2ccsc2)(C(F)(F)F)O1 ; changes: RT-K103N ; result: 7.62
O=C1CC(C#CC2CC2)(C(F)(F)F)c2cc(Cl)ccc2N1 ; changes: RT-L100I ; result: 70.9
O=C1Nc2ccc(Cl)cc2[C@@](/C=C/C2CC2)(C(F)(F)F)N1 ; changes: RT-K103N ; result: 12.9
CCOCn1c(Cc2ccccc2)c(C(C)C)c(=O)[nH]c1=O ; changes: RT-Y181C ; result: >20000
O=C1Nc2ccc(Cl)cc2C(OCCC2CC2)(C(F)(F)F)O1 ; changes: RT-K103N ; result: 54.5
C=Cc1c(Cc2ccccc2)n(COCC)c(=O)[nH]c1=O ; changes: RT-Y181C ; result: 1430
CCCc1cc(=O)oc2c3c(c4c(c12)OC(C)(C)CC4)O[C@H](C)[C@@H](C)C3=O ; changes: RT-Y181C K103N ; method: cytopathic effect / XTT ; result: <6
O=C1Nc2ccc(Cl)cc2C(C#Cc2ccccn2)(C(F)(F)F)O1 ; changes: RT-K103N ; result: 301
FC(F)(Sc1ncccn1)c1nc2ccccc2o1 ; strain: OC/100 ; changes: RT-L100I ; result: 1.21
O=C1Nc2ccc(F)c(F)c2[C@@](/C=C/C2CC2)(C(F)(F)F)N1 ; changes: RT-Y188C ; result: <6.32
O=C1Nc2ccc(Cl)cc2C(C#Cc2ccncc2)(C(F)(F)F)O1 ; changes: RT-K103N ; result: 40.1

The last 2 rows once more:

{"structure": "O=C1Nc2ccc(F)c(F)c2[C@@](/C=C/C2CC2)(C(F)(F)F)N1", "changes": "RT-Y188C", "result": "<6.32"}
{"structure": "O=C1Nc2ccc(Cl)cc2C(C#Cc2ccncc2)(C(F)(F)F)O1", "changes": "RT-K103N", "result": "40.1"}